Like-named read-outs stand apart in the source and are kept apart here.
Assays:
SHIV162P3 = format: cell-based, SHIV; settings: B-R5, TZM-bl cells, 48 h
Protocol: (§1) The IC50 of the various mCD4-conjugates were measured in TZM-bl cells (NIH AIDS Reagent Program, Germantown, MD 20874, US). This cell line expresses high densities of CD4, CCR5 and CXCR4. It contains a luciferase reporter gene under control of HIV LTR, which will be transcribed and translated into luciferase protein, if the cells get infected with HIV and start producing Tat. Briefly, 50 μl of TZM-bl cells (1 × 10^5 cells/mL) supplemented with 30 μg/mL DEAE dextran were incubated with a 50 μl of a 10-fold serial dilution of the compounds under investigation in 96-well flat bottom plates, prior to inoculation with 50 μl of various viruses (see Tables & and 2; 50, 100 or 200 TCID50 was used depending on the virus). As a positive control, 50 μl of compound-free medium was used and as a negative control, 100 μl of medium was added to 100 μl of TZM-bl cells. All conditions were done in triplicates. The plates were incubated for 48 hours (37 °C, 5% CO2). Subsequently, 120 μL of supernatants were removed, 75 μl of the luciferase substrate Steadylite (Perkin Elmer, Life Sciences, Zaventem, Belgium) were added to the wells and the plates were incubated at room temperature on an orbital shaker for 10 minutes. Next, the luciferase activity was measured using a TriStar LB941 luminometer (Berthold Technologies GmbH & Co. KG., Bad Wildbad, Germany) and expressed in relative light units (RLU) as a percentage of positive control wells. IC50 were calculated in GraphPad Prism 5.03 using non-linear regression (GraphPad Software, San Diego, CA, USA).

TZM-bl cells = test: WST-1 cytotoxicity assay; format: cell-based; settings: WST-1, 48 h
Protocol: The water soluble tetrazolium-1 (WST-1) cell proliferation assay is based on the cleavage of the tetrazolium salt WST-1 to a formazan dye by a complex cellular mechanism. Because this bioreduction is dependent on the glycolytic production of NAD(P)H in viable cells, the amount of formazan dye formed is correlates directly to the number of viable cells in a culture. Quantification is done by measuring absorbance at 450 nm in a multiwell plate reader. TZMbl cells (10^4 cells/well) were plated in a 96-well plate and a serial dilution of compound was added. 48 h later, cell proliferation reagent was added and cell viability was measured compared to untreated control cultures. Cell viability was plotted against the compound concentration and non-linear regression analysis was performed to calculate the 50% cytotoxic concentration (CC50).

HIV-1 NL4.3 = format: cell-based; settings: primary CD4 T cells infected with NL4.3, co-culture with autologous target cells, Gag+ targets by flow cytometry
Protocol: Primary CD4^+ T cells were purified from human peripheral blood by positive selection (Miltenyi). About 98% of cells were CD4^+CD3^+. For activation, primary T cells were treated with PHA (1 μg/ml) for 24 h and then cultured with IL-2 (50 IU/ml) for 3–5 days before use. Primary cells were infected with HIV-1 NL4-3 and NLAD8 as described. Donor cells were used a few days later, when about 20% of the cells were Gag^+. Target cells were labeled with FarRed (2.5 μM; Molecular Probes). Donors were preincubated 1 h with the indicated doses of compounds. Donor and target cells were then mixed at a 1:2 ratio in 96-well plates at a final a concentration of 1.5 × 10^6/ml in 200 μl, in duplicates. After 48 or 72 h, cells were stained for intracellular Gag (KC57 mAb, Coulter) and analyzed by flow cytometry. When used, mCD4 or mCD4-conjugates were added 1 h before coculture. Measurement of the levels of Env epitopes at the surface of infected cells with 3BNC117 was performed by flow cytometry as previously described.

HIV-1 p246F10 = format: cell-based; settings: T/F C-R5, TZM-bl cells, 48 h
Protocol: as §1

HIV-1 MN = format: cell-based; settings: B-X4, TZM-bl cells, 48 h
Protocol: as §1

HIV-1 pREJO.c/2864 cl2 = format: cell-based; settings: T/F B-R5, TZM-bl cells, 48 h
Protocol: as §1

HIV-1 pZM247Fv2 = format: cell-based; settings: T/F C-R5, TZM-bl cells, 48 h
Protocol: as §1

HIV-1 pTHRO.c/2626 = format: cell-based; settings: T/F B-R5, TZM-bl cells, 48 h
Protocol: as §1

HIV-1 SF162 = format: cell-based; settings: B-R5, TZM-bl cells, 48 h
Protocol: as §1

HIV-1 Bal = format: cell-based; settings: B-R5, TZM-bl cells, 48 h
Protocol: as §1

HIV-1 VI824 = format: cell-based; settings: D-R5, TZM-bl cells, 48 h
Protocol: as §1

HIV-1 MP568 (CRF02) = format: cell-based; settings: AG-R5, TZM-bl cells, 48 h
Protocol: as §1

HIV-1 VI820 = format: cell-based; settings: A-X4R5, TZM-bl cells, 48 h
Protocol: as §1

HIV-1 Ca10-3 (CRF01) = format: cell-based; settings: AE-X4, TZM-bl cells, 48 h
Protocol: as §1

HIV-1 IIIB = format: cell-based; settings: B-X4, TZM-bl cells, 48 h
Protocol: as §1

HIV-1 VI829 = format: cell-based; settings: C-R5, TZM-bl cells, 48 h
Protocol: as §1

HIV-1 pWITO.c/2474 = format: cell-based; settings: T/F B-R5, TZM-bl cells, 48 h
Protocol: as §1

HIV-1 VI1888 (CRF01) = format: cell-based; settings: AE-R5, TZM-bl cells, 48 h
Protocol: as §1

[1] = Table 1, luciferase, means of two experiments
[2] = 48 h, read-out: IC50 (nM) 48h, cell-cell transmission
[3] = 72 h, read-out: IC50 (nM) 72h, cell-cell transmission
[4] = Table 2, 10^-3 MOI, mean of at least 2 independent experiments, triplicates

CC(C)C[C@@H]1NC(=O)CNC(=O)[C@H](CC(C)C)NC(=O)[C@H](CO)NC(=O)[C@H](CO)NC(=O)[C@@H]2CSSC[C@@H](C(=O)N[C@H](C(N)=O)C(C)C)NC(=O)[C@H](C)NC(=O)[C@@H]3CSSC[C@H](NC(=O)[C@H](CCCCN)NC(=O)[C@H](Cc4c[nH]cn4)NC(=O)[C@H](CC(C)C)NC(=O)[C@H](CC(N)=O)NC(=O)CCSSC[C@H](NC(=O)[C@H](CCCNC(=N)N)NC(=O)CNC(=O)[C@H](CC(C)C)NC1=O)C(=O)N[C@@H](C)C(=O)NCC(=O)N[C@@H](CO)C(=O)N[C@@H](Cc1ccc(-c4ccccc4)cc1)C(=O)N3)C(=O)N[C@@H](CCC(N)=O)C(=O)N[C@@H](CC(C)C)C(=O)N[C@@H](CCCNC(=N)N)C(=O)N2 [mCD4.1]
IC50 (SHIV162P3; [1]): 5370 nM | CC50 (TZM-bl cells; Table 1, 50% cytotoxic concentration): 45525 nM | IC50 (HIV-1 NL4.3; [2]): 91.5 nM | IC50 (HIV-1 NL4.3; [3]): 59.6 nM | IC50 (HIV-1 p246F10; [1]): > 10000 nM | IC50 (HIV-1 MN; [1]): 20 nM | IC50 (HIV-1 pREJO.c/2864 cl2; [1]): 108 nM | IC50 (HIV-1 pZM247Fv2; [1]): > 10000 nM | IC50 (HIV-1 pTHRO.c/2626; [1]): 1180 nM | IC50 (HIV-1 SF162; [1]): 130 nM | IC50 (HIV-1 Bal; [1]): 237 nM | IC50 (HIV-1 VI824; [1]): 3180 nM | IC50 (HIV-1 MP568 (CRF02); [1]): 7930 nM | IC50 (HIV-1 VI820; [1]): 1690 nM | IC50 (HIV-1 Ca10-3 (CRF01); [1]): 96 nM | IC50 (HIV-1 IIIB; [1]): 29 nM | IC50 (HIV-1 VI829; [1]): > 10000 nM | IC50 (HIV-1 pWITO.c/2474; [1]): 1120 nM | IC50 (HIV-1 VI1888 (CRF01); [1]): > 10000 nM

CC(C)C[C@@H]1NC(=O)CNC(=O)[C@H](CC(C)C)NC(=O)[C@H](CO)NC(=O)[C@H](CCCNC(=N)N)NC(=O)[C@@H]2CSSC[C@@H](C(=O)N[C@H](C(N)=O)C(C)C)NC(=O)[C@H](C)NC(=O)[C@@H]3CSSC[C@H](NC(=O)[C@H](CCCCNC(=O)CCOCCOCCNC(=O)CCN4C(=O)CC(SCCC(=O)NCCCC(=O)N[C@@H](CO)C(=O)N[C@@H](Cc5ccc(OS(=O)(=O)O)cc5)C(=O)N[C@@H](CC(=O)O)C(=O)N[C@@H](Cc5ccc(OS(=O)(=O)O)cc5)C(=O)N[C@@H](CO)C(=O)N[C@@H](Cc5ccc(OS(=O)(=O)O)cc5)C(=O)N[C@@H](CC(=O)O)C(=O)N[C@@H](Cc5ccc(OS(=O)(=O)O)cc5)C(=O)N[C@@H](CO)C(=O)N[C@@H](Cc5ccc(OS(=O)(=O)O)cc5)C(=O)N[C@@H](CC(=O)O)C(=O)N[C@@H](Cc5ccc(OS(=O)(=O)O)cc5)C(=O)N[C@@H](CO)C(=O)O)C4=O)NC(=O)[C@H](Cc4c[nH]cn4)NC(=O)[C@H](CC(C)C)NC(=O)[C@H](CC(N)=O)NC(=O)CCSSC[C@H](NC(=O)[C@H](CCCNC(=N)N)NC(=O)CNC(=O)[C@H](CC(C)C)NC1=O)C(=O)N[C@@H](C)C(=O)N1CCC[C@@H]1C(=O)N[C@@H]([C@@H](C)O)C(=O)N[C@@H](Cc1ccc(OCC4CCCCC4)cc1)C(=O)N3)C(=O)N[C@@H](CCC(N)=O)C(=O)N[C@@H](CC(C)C)C(=O)N[C@@H](CCCNC(=N)N)C(=O)N2 (stereo partly shown) [mCD4.3-PS1]
IC50 (SHIV162P3; [4]): 1.4 nM | CC50 (TZM-bl cells; Table 2, 50% cytotoxic concentration): >50000 nM | IC50 (HIV-1 NL4.3; [2]): 0.2 nM | IC50 (HIV-1 NL4.3; [3]): 0.3 nM | IC50 (HIV-1 p246F10; [4]): 33 nM | IC50 (HIV-1 MN; [4]): 0.026 nM | IC50 (HIV-1 pREJO.c/2864 cl2; [4]): 0.28 nM | IC50 (HIV-1 pZM247Fv2; [4]): 192 nM | IC50 (HIV-1 pTHRO.c/2626; [4]): 6.4 nM | IC50 (HIV-1 SF162; [4]): 0.0075 nM | IC50 (HIV-1 Bal; [4]): 0.031 nM | IC50 (HIV-1 VI824; [4]): 0.7 nM | IC50 (HIV-1 MP568 (CRF02); [4]): 4.2 nM | IC50 (HIV-1 VI820; [4]): 0.024 nM | IC50 (HIV-1 Ca10-3 (CRF01); [4]): 0.076 nM | IC50 (HIV-1 IIIB; [4]): 0.0025 nM | IC50 (HIV-1 VI829; [4]): 3.6 nM | IC50 (HIV-1 pWITO.c/2474; [4]): 1.5 nM | IC50 (HIV-1 VI1888 (CRF01); [4]): 1210 nM

CC(C)C[C@@H]1NC(=O)CNC(=O)[C@H](CC(C)C)NC(=O)[C@H](CO)NC(=O)[C@H](CCCCNC(=O)CCOCCOCCNC(=O)CCN2C(=O)CC(SCCC(=O)NCCCC(=O)N[C@@H](CO)C(=O)N[C@@H](Cc3ccc(OS(=O)(=O)O)cc3)C(=O)N[C@@H](CC(=O)O)C(=O)N[C@@H](Cc3ccc(OS(=O)(=O)O)cc3)C(=O)N[C@@H](CO)C(=O)N[C@@H](Cc3ccc(OS(=O)(=O)O)cc3)C(=O)N[C@@H](CC(=O)O)C(=O)N[C@@H](Cc3ccc(OS(=O)(=O)O)cc3)C(=O)N[C@@H](CO)C(=O)N[C@@H](Cc3ccc(OS(=O)(=O)O)cc3)C(=O)N[C@@H](CC(=O)O)C(=O)N[C@@H](Cc3ccc(OS(=O)(=O)O)cc3)C(=O)N[C@@H](CO)C(=O)O)C2=O)NC(=O)[C@@H]2CSSC[C@@H](C(=O)N[C@H](C(N)=O)C(C)C)NC(=O)[C@H](C)NC(=O)[C@@H]3CSSC[C@H](NC(=O)[C@H](Cc4ccccc4)NC(=O)[C@H](Cc4c[nH]cn4)NC(=O)[C@H](CC(C)C)NC(=O)[C@H](CC(N)=O)NC(=O)CCSSC[C@H](NC(=O)[C@H](CCCNC(=N)N)NC(=O)CNC(=O)[C@H](CC(C)C)NC1=O)C(=O)N[C@@H](C)C(=O)N1CCC[C@@H]1C(=O)N[C@@H]([C@@H](C)O)C(=O)N[C@@H](Cc1ccc(OCC4CCCCC4)cc1)C(=O)N3)C(=O)N[C@@H](CCC(N)=O)C(=O)N[C@@H](CC(C)C)C(=O)N[C@@H](CCCNC(=N)N)C(=O)N2 (stereo partly shown) [M48U1-PS1]
IC50 (HIV-1 Bal; Supplementary Table SI): 0.13 nM | IC50 (HIV-1 IIIB; Supplementary Table SI): 0.02 nM
